The entries are a selection whose mix differs from that of the whole data set. Activity calls are given as the source filed them. Cut-off read from the data, not from the text of the source: active = inhibition above about 15%; inactive = the rest.
Assay: Jurkat T cell cytotoxicity, cytotoxicity control for T. brucei MetRS inhibitor project, luminescence, high throughput (AID 624413);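 note: 0% = vehicle and 100% = reference inhibitor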
Details: Jurkat cells viability, ATP luminescence; at 8.3 µM; active compounds read high
In the case of CCC1=CC2Cc3nc4ccc(Cl)cc4c(N)c3C(C1)C2 (configuration not stated), the inhibition is reported as active: 54.7%. For O=P(Nc1nc2ccc(Cl)cc2s1)(c1ccccc1)c1ccccc1, the inhibition was inactive: 1.29%.
